{"source": "patent US20230077716A1", "about": "(published 2023)", "binders": {"B1": {"name": "1G05 Fab (Fab, V domains shown)", "VH": "QVQLQESGPGLVRPSETLSLTCTVSGDSIGGSYWNWIRQPPGKGLQWIGYIYYTGITNYNPSLKSRVTMSLDTSKNQISLKMDSVTAADTALYFCARGDYSGYDRDVQVELMDVWGKGTTVTVSS", "VL": "DIQMTQSPSSLSASVRDKVTFVCRASQTISIFLNWYQHKPGEAPKLLIYAASRLQSGVPSRFSGSGSGTDFTLTISGLQPEDFATYYCQQSYSAPWTFGQGTKVEIK"}}, "key": {"[1]": {"target": "T1, recombinant B/Phuket/3073/2013 NA ectodomain (tetramer) (UniProt P16199 79-465)", "test": "BLI; equilibrium"}, "[2]": {"target": "T1, recombinant B/Phuket/3073/2013 NA …", "test": "BLI; kinetic"}}}
{"binder": "B1", "values": [{"measurement": "Kd", "setting": "[1]", "result": 6.84, "unit": "nM"}, {"measurement": "Kd", "setting": "[2]", "result": 1.07, "unit": "nM"}]}
